Amino acid sequences for entries named in this document (tags omitted). Residues count along the entry.
UniProt P03454, 18-565: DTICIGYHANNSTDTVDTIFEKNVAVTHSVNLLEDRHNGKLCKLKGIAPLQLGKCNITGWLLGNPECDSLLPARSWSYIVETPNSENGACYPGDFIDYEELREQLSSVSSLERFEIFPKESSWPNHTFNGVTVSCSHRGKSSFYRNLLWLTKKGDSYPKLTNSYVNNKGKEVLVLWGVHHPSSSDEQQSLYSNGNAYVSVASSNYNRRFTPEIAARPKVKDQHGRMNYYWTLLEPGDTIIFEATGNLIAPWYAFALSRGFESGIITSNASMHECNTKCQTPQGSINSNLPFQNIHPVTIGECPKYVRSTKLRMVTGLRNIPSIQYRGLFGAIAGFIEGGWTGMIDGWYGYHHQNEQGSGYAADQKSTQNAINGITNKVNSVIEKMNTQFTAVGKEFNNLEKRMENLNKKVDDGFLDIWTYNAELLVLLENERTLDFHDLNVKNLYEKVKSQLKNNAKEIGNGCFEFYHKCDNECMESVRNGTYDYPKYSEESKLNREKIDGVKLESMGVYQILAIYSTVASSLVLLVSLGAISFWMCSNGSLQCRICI

According to paper PMC10878280 (Journal of Virology, 2024):

Molecular target: T1, hemagglutinin (HA) of A/WSN/1933, on transfected HEK-293T cells (Influenza A virus A/WSN/1933 (H1N1), UniProt P03454)
T1 construct: source: HEK-293T, transfected with HA-expressing plasmid, on cells
Experiment: fluorescence imaging with FRAP of labelled antibody on transfected cells
Conditions: one partner purified

Row | Binder | binding result
1 | CR9114 scFv (scFv, V domains shown, also called monovalent CR9114 scFv; CR9114 scFv 488) VH: QVQLVQSGAEVKKPGSSVKVSCKSSGGTSNNYAISWVRQAPGQGLDWMGGISPIFGSTAYAQKFQGRVTISADIFSNTAYMELNSLTSEDTAVYFCARHGNYYYYSGMDVWGQGTTVTVSS VL: QSALTQPPAVSGTPGQRVTISCSGSDSNIGRRSVNWYQQFPGTAPKLLIYSNDQRPSVVPDRFSGSKSGTSASLAISGLQSEDEAEYYCAAWDDSLKGAVFGGGTQLTVL | binds
2 | CR9114 IgG (antibody, V domains shown, also called bivalent CR9114 IgG; not shown: ybbR, C-terminal, kept; copies: 2 + 2) VH: QVQLVQSGAEVKKPGSSVKVSCKSSGGTSNNYAISWVRQAPGQGLDWMGGISPIFGSTAYAQKFQGRVTISADIFSNTAYMELNSLTSEDTAVYFCARHGNYYYYSGMDVWGQGTTVTVSS VL: QSALTQPPAVSGTPGQRVTISCSGSDSNIGRRSVNWYQQFPGTAPKLLIYSNDQRPSVVPDRFSGSKSGTSASLAISGLQSEDEAEYYCAAWDDSLKGAVFGGGTQLTVL | binds
